# In publication PMC6600592, “Design, Synthesis, and Bioactive Screen In Vitro of Cyclohexyl (E)-4-(Hydroxyimino)-4-Phenylbutanoates and Their Ethers for Anti-Hepatitis B Virus Agents” (Molecules, 2019):
# How the values were obtained:
# [1] = test system: HBeAg; conditions: CC50/IC50 for HBeAg, HepG 2.2.15 cells
# Description: (§1) These synthesized compounds were evaluated for anti-HBV activity with referring to reported method. The HepG2.2.15 cell, a human hepatoblastoma cell line stably transfected with cloned HBV DNA, was obtained from Chinese Academy of Medical Sciences (Beijing, China), and was cultured in Dulbecco’s Modified Eagle’s Medium (DMEM) supplemented with 10% fetal bovine serum and 1.5 g/L of sodium bicarbonate, 10 mL/L of streptomycin, 10 mL/L of penicillin, and 200 mg/L of G418 at 37 °C in a 5% CO2 atmosphere with 95–98% humidity. Then, HepG2.2.15 cell was plated at a density of 1 × 10^5 cells/mL in 96-well plates and incubated at 37 °C for 24 h and then treated with variant concentration of compounds in […]; every three days, in a nine day period, C (OD) values were recorded at 450 nm. After nine days, the percent of cell death was measured using the method of MTT assay after drug treatment. Cytotoxicity of these compounds was expressed as the concentration of compound required to kill 50% (CC50) of the HepG 2.2.15 cells.
# (§2) Method for the HBsAg and HBeAg Inhibition Assays. The levels of HBV surface antigen (HBsAg) and HBV e antigen (HBeAg) in the supernatant of the HepG2.2.15 cells were determined by the enzyme-linked immunosorbent assay (ELISA) according to the manufacturer’s protocol (Shanghai Kehua Biotech Co., Ltd., Shanghai, China). The synthesized compounds were expressed as the concentration that achieved 50% inhibition (IC50) to the secretion of HBsAg and HBeAg. The selectivity index (SI) was determined as the ratio of CC50 to IC50 which a major pharmaceutical parameter of estimates possible future clinical application.
# [2] = test system: HBsAg; conditions: CC50/IC50 for HBsAg, HepG 2.2.15 cells
# Description: as §1, §2
substance,measurement,setting,value
Cyclohexyl (E)-4-methoxyimino-4-(4-methoxyphenyl)butanoate [Compound 4B-2],HBeAg SI (selectivity index = CC50/IC50),[1],17.34
same,HBsAg SI (selectivity index = CC50/IC50),[2],13.41
Cyclohexyl (E)-4-hydroxyimino-4-(4-chlorophenyl)butanimidate [Compound 4D-1],HBeAg SI (selectivity index = CC50/IC50),[1],1.06
same,HBsAg SI (selectivity index = CC50/IC50),[2],1.13
